In ChEMBL document CHEMBL4665854, “Backbone Cyclization Turns a Venom Peptide into a Stable and Equipotent Ligand at Both Muscle and Neuronal Nicotinic Receptors” (J Med Chem, 2020) one finds IC50 data, which are given here for one molecule.

The chains behind the UniProt entries cited, without tags or fusion partners. Residues count along the entry.
UniProt P25109, 24-501 limits assumed: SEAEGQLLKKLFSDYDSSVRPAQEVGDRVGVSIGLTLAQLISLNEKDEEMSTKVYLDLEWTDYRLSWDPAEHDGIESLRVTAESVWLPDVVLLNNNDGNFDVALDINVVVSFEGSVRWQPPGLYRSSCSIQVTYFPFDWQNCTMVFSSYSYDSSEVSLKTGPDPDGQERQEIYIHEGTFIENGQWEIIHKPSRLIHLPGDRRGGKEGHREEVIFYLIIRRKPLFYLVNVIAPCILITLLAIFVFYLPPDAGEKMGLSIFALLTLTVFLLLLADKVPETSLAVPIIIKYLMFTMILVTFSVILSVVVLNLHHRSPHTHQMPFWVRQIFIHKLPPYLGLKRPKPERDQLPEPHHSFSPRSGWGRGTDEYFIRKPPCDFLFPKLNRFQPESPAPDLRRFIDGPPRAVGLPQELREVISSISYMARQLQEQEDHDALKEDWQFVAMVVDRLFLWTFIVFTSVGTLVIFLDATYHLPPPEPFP
UniProt P25108, 21-457 limits assumed: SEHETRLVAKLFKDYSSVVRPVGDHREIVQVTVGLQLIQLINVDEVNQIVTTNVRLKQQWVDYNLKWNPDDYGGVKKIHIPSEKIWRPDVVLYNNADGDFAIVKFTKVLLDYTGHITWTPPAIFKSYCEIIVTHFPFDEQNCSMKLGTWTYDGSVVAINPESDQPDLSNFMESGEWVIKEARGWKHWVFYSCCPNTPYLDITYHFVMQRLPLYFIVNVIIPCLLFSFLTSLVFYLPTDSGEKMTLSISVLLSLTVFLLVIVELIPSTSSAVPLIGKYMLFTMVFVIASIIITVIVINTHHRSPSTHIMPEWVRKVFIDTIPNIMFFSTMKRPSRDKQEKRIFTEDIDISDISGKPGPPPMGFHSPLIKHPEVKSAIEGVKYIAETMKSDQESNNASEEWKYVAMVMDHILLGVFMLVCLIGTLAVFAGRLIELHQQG
UniProt P25110, 22-517 limits assumed: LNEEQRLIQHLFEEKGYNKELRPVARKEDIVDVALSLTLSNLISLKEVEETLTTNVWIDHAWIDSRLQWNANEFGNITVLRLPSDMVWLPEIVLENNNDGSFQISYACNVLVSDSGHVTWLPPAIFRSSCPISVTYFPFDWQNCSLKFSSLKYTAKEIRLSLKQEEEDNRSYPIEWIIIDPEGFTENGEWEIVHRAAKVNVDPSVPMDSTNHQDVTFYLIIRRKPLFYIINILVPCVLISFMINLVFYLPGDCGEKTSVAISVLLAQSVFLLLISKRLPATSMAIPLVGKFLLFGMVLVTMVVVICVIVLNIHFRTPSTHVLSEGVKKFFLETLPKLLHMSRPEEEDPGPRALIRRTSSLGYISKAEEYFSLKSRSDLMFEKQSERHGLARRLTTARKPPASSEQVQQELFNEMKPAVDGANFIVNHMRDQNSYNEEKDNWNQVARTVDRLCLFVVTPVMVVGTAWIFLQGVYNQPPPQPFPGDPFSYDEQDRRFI
UniProt P18916, 23-519 limits assumed: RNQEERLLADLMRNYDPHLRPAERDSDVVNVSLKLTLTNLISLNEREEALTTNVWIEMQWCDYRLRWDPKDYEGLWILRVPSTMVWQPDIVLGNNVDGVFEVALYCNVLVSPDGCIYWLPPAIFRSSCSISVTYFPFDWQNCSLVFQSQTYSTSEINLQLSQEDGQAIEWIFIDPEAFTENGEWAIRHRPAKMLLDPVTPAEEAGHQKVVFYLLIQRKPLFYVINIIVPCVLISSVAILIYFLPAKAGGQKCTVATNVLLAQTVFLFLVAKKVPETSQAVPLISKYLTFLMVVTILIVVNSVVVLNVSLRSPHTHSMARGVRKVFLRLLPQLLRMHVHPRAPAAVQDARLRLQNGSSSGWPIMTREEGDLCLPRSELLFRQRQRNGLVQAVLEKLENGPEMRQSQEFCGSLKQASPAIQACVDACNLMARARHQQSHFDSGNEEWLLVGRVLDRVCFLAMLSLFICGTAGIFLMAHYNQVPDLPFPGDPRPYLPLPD
UniProt P04757, 26-499 limits assumed: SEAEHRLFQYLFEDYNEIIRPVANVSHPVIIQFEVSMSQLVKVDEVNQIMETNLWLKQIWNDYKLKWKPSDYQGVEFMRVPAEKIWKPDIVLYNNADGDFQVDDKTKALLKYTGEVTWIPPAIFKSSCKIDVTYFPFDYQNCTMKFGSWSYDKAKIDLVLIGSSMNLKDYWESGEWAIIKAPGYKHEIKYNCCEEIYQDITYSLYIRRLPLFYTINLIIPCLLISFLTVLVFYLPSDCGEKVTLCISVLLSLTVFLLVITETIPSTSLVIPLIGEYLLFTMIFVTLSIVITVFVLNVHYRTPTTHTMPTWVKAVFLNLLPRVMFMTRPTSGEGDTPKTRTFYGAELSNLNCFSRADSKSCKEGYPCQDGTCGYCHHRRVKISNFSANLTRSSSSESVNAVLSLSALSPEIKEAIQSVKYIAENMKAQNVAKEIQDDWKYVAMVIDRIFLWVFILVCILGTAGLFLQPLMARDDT
UniProt P12390, 25-500 limits assumed: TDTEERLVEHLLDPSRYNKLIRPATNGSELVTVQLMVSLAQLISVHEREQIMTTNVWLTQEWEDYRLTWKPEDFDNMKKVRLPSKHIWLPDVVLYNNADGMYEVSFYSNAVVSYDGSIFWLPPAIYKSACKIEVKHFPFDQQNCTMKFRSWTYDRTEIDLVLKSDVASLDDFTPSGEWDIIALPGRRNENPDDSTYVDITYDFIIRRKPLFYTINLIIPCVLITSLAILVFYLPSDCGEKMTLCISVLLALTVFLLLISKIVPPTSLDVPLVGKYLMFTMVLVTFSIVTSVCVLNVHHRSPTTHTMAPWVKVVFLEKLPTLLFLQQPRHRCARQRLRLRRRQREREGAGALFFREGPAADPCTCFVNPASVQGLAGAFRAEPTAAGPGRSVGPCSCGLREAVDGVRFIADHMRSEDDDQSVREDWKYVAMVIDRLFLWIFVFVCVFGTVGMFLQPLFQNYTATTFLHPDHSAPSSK

The target in test [1] is CHRNA1/CHRNB1/CHRNG/CHRND (Rattus norvegicus, UniProt P25109+P25108+P25110+P18916). Kind of test: Inhibition of rat (alpha1)2betagammadelta expressed in Xenopus laevis oocytes assessed as inhibition of acetylcholine-induced channel current response at -70 mV holding potential by two-electrode voltage-clamp assay. In kind it is cell-based, Oocyte.
In test [2] the target is Neuronal acetylcholine receptor; alpha3/beta2 (Rattus norvegicus, UniProt P04757+P12390). The test can be described thus: Inhibition of rat alpha3beta2 expressed in Xenopus laevis oocytes assessed as inhibition of acetylcholine-induced channel current response at -70 mV holding potential by two-electrode voltage-clamp assay. The class given is cell-based, Oocyte. For orientation: Two-electrode voltage clamp holds a large cell at a set potential and records current.

As for `C[C@@H]1NC(=O)[C@@H]2CCCN2C(=O)[C@H](Cc2c[nH]cn2)NC(=O)[C@@H]2CSSC[C@@H](C(N)=O)NC(=O)[C@H](CO)NC(=O)[C@H](Cc3ccccc3)NC(=O)[C@H](Cc3c[nH]cn3)NC(=O)[C@H](CCCCN)NC(=O)CNC(=O)[C@H](CSSC[C@H](NC(=O)[C@H](CCCNC(=N)N)NC(=O)CNC(=O)[C@@H](N)CC(N)=O)C(=O)N2)NC1=O`, the results for the IC50 in test [1] and in test [2] were 6.62 nM and 68.2 nM, respectively.

By IC50 is commonly meant the concentration needed to halve the response being measured.
